Here are results for 29 substances from EP0352000A2 (SMITHKLINE BECKMAN CORPORATION, priority 1988, dated 1990).

Several values for one entry are separate records, joined by “and”; a condition that tells them apart may be missing. Equal entries are not always repeated. Where no end group is shown, it is not given here. [ ]: non-standard residue; d: D form. The star is where a group is joined. Dansyl = CN(C)c1cccc2c(S(=O)(=O)*)cccc12

A short description of the first series: general procedure: Boc solid-phase peptide synthesis; benzhydrylamine resin (BHA); DCC/HOBt. Particulars: coupling step.
On to “(4S,5S) 5-(carbobenzyloxy-(O-phenylmethyl)serylalanylalanyl) amino-4-hydroxy-1-oxo-6-phenylhexyl-valyl valine methyl ester”, for which the step yield was determined as 52% yield. Consider “(1R,2R) 2-(((1S,2S)-1-hydroxy-2-(t-butyloxycarbonyl-(O-phenylmethyl)serylalanylalanyl)amino-3-cyclohexyl)propyl) cyclopentanecarbonyl-valyl valine methyl ester”, for which the step yield was 46% yield.

In the case of “(4S,5S) 5-((carbobenzyloxy-D-seryl)alanylalanyl)amino-4-hydroxy-1-oxo-6-phenylhexyl-valyl valine methyl ester”, the step yield is reported as 14% yield. As to “(4S,5S)-5-(carbobenzyloxyalanyl)amino-4-hydroxy-1-oxo-6-(4-benzyloxyphenyl)hexyl-valyl valine methyl ester”, the step yield worked out at 82%. The same measure, in the same setting: the same measure for “(4S,5S)-5-(carbobenzyloxyalanylalanyl)amino-4-(tert-butyldimethylsiloxy)-6-phenyl-(1-oxo)hexyl-valine isobutylamide”: 60 % yield; for “(4S,5S) 5-(carbobenzyloxyalanylalanyl)amino-4-hydroxy-1-oxo-6-phenylhexyl-valyl valine methyl ester”: 68% yield.

The same series, now with this note: late stage modification step.
“(1S,2S)-2-(((1S,2S)-2-(tert-butyloxycarbonyl-L-serylalanylalanyl)-amino-1-hydroxy-3-phenyl)propyl)cyclopentanecarbonyl-valyl valine methyl ester” showed a step yield of 92% yield. The same measure, in the same setting: in the case of “(4S,5S) 5-[(O-phenylmethyl)serylalanylalanyl]amino-1-oxo-6-phenylhexyl-valyl valine methyl ester, acetic acid salt” it was 94% yield; in that of “(4S,5S) 5-(alanylalanyl)amino-4-hydroxy-1-oxo-6-cyclohexyl-hexyl-valyl valine methyl ester”, 62% yield; in that of “(4S,5S)-5-(methoxycarbonyl-alanylalanyl)amino-6-phenyl-4-hydroxy-(1-oxo)hexyl-valyl valine”, 95% yield.

“4-(tert-butyloxycarbonyl-serylalanylalanyl)amino-2,2-difluoro-1,3-dioxo-5-phenylpentyl-valyl valine methyl ester” had a step yield of 67%.

Staying with this series, now noted: purification step.
Take Ac-SQGYPVV-NH2: the step yield is on record as 72.5%.

Staying with this series, now noted: purification step; run 1.
As to Ac-HQNYPVV-NH2, the step yield was 65.3% and 55.2%.

The series is the same for the next values; noted with them: whole synthesis.
For “Ac-Ser-Gln-Asn-(4′NO₂)Phe-Pro-Val-Val-NH₂”, the crude yield was 80% yield.

Ac-SQAYPVV-NH2 returned a crude yield of 55% yield. Substance Ac-SRNYPVV-NH2 yielded a crude yield of 80% yield. Same read-out and setting: the same measure for Ac-SANYPVV-NH2: 84% yield; for Ac-HQNYPVV-NH2: 69.4%. Still for that read-out and setting: the same measure for Ac-SQRYPVV-NH2: 86% yield.

Ac-SSNYPVV-NH2 came in with a crude yield of 70% yield. The same measure, in the same setting: in the case of Ac-SQKYPVV-NH2 it was 77.32% yield. In the case of Ac-SQGYPVV-NH2, the crude yield was determined as 50.6%. The same measure, in the same setting: in the case of Ac-SKNYPVV-NH2 it was 81% yield.

The same series, now with this note: whole synthesis, scale 0.5 mmol.
Ac-AQNYPVV-NH2: the crude mass turned out to be 275 mg and the isolated mass is reported as 235 mg. “2-isopropylamino-3-phenyl-propyl-prolylvalyl valinamide” had a crude mass of 139.6 mg and an isolated mass of 81.1 mg. Take AAQNYPVV-NH2: the crude mass was 265 mg.

Take Ac-CQNYPVV-NH2: the crude mass came to 292 mg and the isolated mass was determined as 188 mg. For Ac-SGNYPVV-NH2, the crude mass is given as 167 mg and the isolated mass is recorded as 138 mg.

The series is the same for the next values; noted with them: whole synthesis, scale One mmole.
Substance Ac-SQNY[dP]VV-NH2 yielded a crude mass of 406 mg and an isolated mass of 260 mg. In turn, Ac-SQNYPVR-NH2 gave a crude mass of 639 mg.

The series is the same for the next values; noted with them: whole synthesis, scale One-half mmole.
Substance Dansyl-SQNYPVV-NH2 came in with a crude mass of 290 mg.

Still in this series, the particulars now being: whole synthesis, scale One-half mole.
Ac-SQAYPVV-NH2 gave a crude mass of 220 mg.
